Anti-infective test results gathered from many reports (values: NIAID ChemDB through PubChem).

All rows: tests in culture; organism: HIV-1; method: p24; endpoint: EC50

ECn: concentration that inhibits the pathogen or its effect by n%. Blank or dashed fields: not listed here. Conditions beyond the fields shown may differ between rows.

smiles | cell line | changes | strain or isolate | value
CC(C)(C)NC(=O)[C@@H]1CN(Cc2cccnc2)CCN1C[C@@H](O)C[C@@H](Cc1ccccc1)C(=O)N[C@H]1c2ccccc2C[C@H]1O | PBMC | RT-D67N T69N K70R M184V T215F K219Q | 7295-1 NRTI resistant recombinant | 0.0172 µM
Cc1cc(C)c(-n2nnnc2SCC(=O)Nc2ccc(-n3cccn3)cc2)c(C)c1 | MT-4 |  |  | <10 µM
CC(C)OC(=O)OCOP(=O)(CO[C@H](C)Cn1cnc2c(N)ncnc21)OCOC(=O)OC(C)C | MT-2 | RT-D67 K70 T215 | 1391-4 high AZT resistance (RT D67 K70 T215) | 0.006 µM
O=C(O)P(=O)(O)O | PBMC |  | 7898 CLADE B CLADE B | 5 µM
Cc1cc(C)c(-n2nnnc2OCC(=O)Nc2ccccc2Cl)c(C)c1 | MT-4 |  |  | <10 µM
CC(C)CN(C[C@@H](O)[C@H](Cc1ccccc1)NC(=O)[C@H](CC(N)=O)NC(=O)c1ccc2ccccc2n1)C(=O)NC(C)(C)C | MT-4 | PR-M46I L63P V82T | NL4-3 | <0.4 µM
Cc1cc(C)c(-n2nnnc2SCC(=O)Nc2ccc(Cl)cn2)c(C)c1 | MT-4 |  |  | <10 µM
O=c1[nH]cnc2c1ncn2[C@H]1CC[C@@H](CO)O1 | MT-2 | 1(T69G+K103N) | RT-T69G K103N | 0.633 µM
O=c1[nH]cnc2c1ncn2[C@H]1CC[C@@H](CO)O1 | MT-4 | RT-M184V | HXB2D (RT-M184V) | 37.6 µM
O=C1N(Cc2ccc(CO)cc2)[C@H](Cc2ccccc2)[C@H](O)[C@@H](O)[C@@H](Cc2ccccc2)N1Cc1ccc(CO)cc1 | PBMC |  | G clinical isolate | 0.11 µM
Cc1ccnc2c1NC(=O)c1cccnc1N2C1CC1 | MT-2 | 1(T69G+K103N) | RT-T69G K103N | 0.577 µM
CC(C)c1nc(CN(C)C(=O)N[C@H](C(=O)N[C@@H](Cc2ccccc2)C[C@H](O)[C@H](Cc2ccccc2)NC(=O)OCc2cncs2)C(C)C)cs1 | MT-4 | PR-N88D | NL4-3 | <0.01 µM
COC(=O)[C@H](C)NP(=O)(OC[C@@H]1C=C[C@H](n2cc(C)c(=O)[nH]c2=O)O1)Oc1ccc(Br)cc1 | PBMC | RT-D67N L214F T215D K219Q | BR/92/019 NRTI resistant | 0.002 µM
CC(C)(C)NC(=O)[C@@H]1C[C@@H]2CCCC[C@@H]2CN1C[C@@H](O)[C@H](Cc1ccccc1)NC(=O)[C@H](CC(N)=O)NC(=O)c1ccc2ccccc2n1 | MT-4 | PR-M46I | NL4-3 | <0.025 µM
Cc1cn([C@H]2C[C@H](N=[N+]=[N-])[C@@H](CO)O2)c(=O)[nH]c1=O | PBMC | RT-M41L T215Y | X267-2 Clinical isolate ZDV-resistant | 0.4 µM
O=C(CSc1nnnn1-c1cccc(Cl)c1)Nc1ccccc1Cl | MT-4 |  |  | <10 µM
COC(=O)[C@H](C)NP(=O)(OC[C@@H]1C=C[C@H](n2cc(C)c(=O)[nH]c2=O)O1)Oc1ccc(Br)cc1 | PBMC | RT-M42L M184V T215Y | C140 Clinical isolate ZDV-resistant | 0.0025 µM
Nc1ccn([C@@H]2CS[C@H](CO)O2)c(=O)n1 | PBMC | RT-M41L T69ins L74V M184V L210W T215Y | 52534-2 NRTI resistant recombinant | >10 µM

Repeating the final 2 entries:

| smiles | cell line | changes | strain or isolate | value |
|---|---|---|---|---|
| COC(=O)[C@H](C)NP(=O)(OC[C@@H]1C=C[C@H](n2cc(C)c(=O)[nH]c2=O)O1)Oc1ccc(Br)cc1 | PBMC | RT-M42L M184V T215Y | C140 Clinical isolate ZDV-resistant | 0.0025 µM |
| Nc1ccn([C@@H]2CS[C@H](CO)O2)c(=O)n1 | PBMC | RT-M41L T69ins L74V M184V L210W T215Y | 52534-2 NRTI resistant recombinant | >10 µM |